Compound potency records, mixed from different reports. Data source: NIAID ChemDB in PubChem.

All rows: enzyme or target tests; organism: HIV-1; protein: Integrase; method: 3′ processing; endpoint: IC50

Neighbouring rows are from separate reports. ICn is the concentration giving n% inhibition. An empty or dashed field is not shown.

smiles,setting,strain or isolate,value
CCCCCC(=O)c1c(O)cc2c(c1O)C(=O)c1c(O)cc(O)cc1C2=O,Mn2+,,53 µM
O=c1oc2ccccc2c(O)c1C(c1ccccc1)c1c(O)c2ccccc2oc1=O,,,43 µM
CC(C)C[C@H]1OC(=O)[C@H](C(C)C)N(C)C(=O)[C@@H](C(C)C)OC(=O)[C@H](C(C)C)N(C)C(=O)[C@@H](C(C)C)OC(=O)[C@H](C(C)C)N(C)C1=O,,,37.9 µM
O=C1/C(=C/c2ccc(O)c(O)c2)CC(C(=O)O)C/C1=C\c1ccc(O)c(O)c1,,,1.2 µM
NC(N)=NS(=O)(=O)c1ccc(Nc2c3ccccc3nc3c(C(=O)NC(CO)(CO)CO)cccc23)cc1,,RF,>180 µM
Cc1cn(C2CC(OP(=O)(O)OCC3OC(n4ccc(N)nc4=O)CC3O)C(COP(=O)(O)OC3CC(n4cnc5c(=O)[nH]c(N)nc54)OC3COP(=O)(O)O)O2)c(=O)[nH]c1=O,,,40 µM
COc1ccc(-c2cc(=O)c3c(O)cc(O)cc3o2)cc1Oc1ccc(-c2cc(=O)c3c(O)cc(O)cc3o2)cc1,,,>250 µM
O=C(CCCN(C1CCCCC1)C1CCCCC1)Nc1ccc(S(=O)(=O)c2ccc(NC(=O)CCCN(C3CCCCC3)C3CCCCC3)cc2)cc1,,,>100 µM
CN(C)C1C(=O)C(C(=O)NCNCCCO)=C(O)C2(O)C(=O)C3=C(O)c4c(O)cccc4C(C)(O)C3CC12,,RF,1.2 µM
Nc1ccn([C@@H]2O[C@H](COP(=O)(O)O[C@H]3[C@H](n4cnc5c(N)ncnc54)CO[C@@H]3COP(=O)(O)O)[C@@H](O)[C@H]2O)c(=O)n1,,,>1000 µM
O=C(/C=C/c1ccc(O)c(O)c1)Oc1c(-c2ccc(Cl)c(Cl)c2)oc2ccccc2c1=O,,,60 µM
O=c1c(O)cc2c(O)oc3c(=O)c(O)c(O)c4c(O)oc1c2c43,,,1.6 µM
CC(=O)O[C@H](C)[C@@H]1C2=C(C(=O)C[C@]1(C)O)C(=O)c1c(ccc(-c3ccc4c(c3O)C(=O)C3=C(C4=O)[C@@H]([C@@H](C)OC(C)=O)[C@@](C)(O)CC3=O)c1O)C2=O,,RF,140 µM
O=S(=O)(c1ccc(F)cc1)c1ccc(F)cc1,,,>100 µM
Nc1ncnc2c1ncn2[C@@H]1CO[C@H](COP(=O)(O)O[C@H]2C[C@H](n3cnc4c(N)ncnc43)O[C@@H]2COP(=O)(O)O)[C@H]1O,,,>1000 µM
CC(O)C(NCNC(=O)C1=C(O)C2(O)C(=O)C3=C(O)c4c(O)cccc4C(C)(O)C3CC2C(N(C)C)C1=O)C(=O)O,,RF,1.3 µM
O=C(O)c1cc2ccccc2c(N=Nc2ccc(S(=O)(=O)Nc3nccs3)cc2)c1O,Mn2+,,19 µM
O=C1OC(=O)c2cc(S(=O)(=O)c3ccc4c(c3)C(=O)OC4=O)ccc21,,,20.9 µM
CC1(O)CC2(O)C=CC3=C(C(=O)c4cccc(O)c4C3=O)C2(O)C(=O)C1O,,,>250 µM
Nc1ncnc2c1ncn2[C@@H]1CO[C@H](COP(=O)(O)O)[C@H]1OP(=O)(O)OC[C@H]1O[C@@H](n2cnc3c(N)ncnc32)C[C@@H]1O,,,>1000 µM
O=C(O)c1ccc(S(=O)(=O)c2ccc(C(=O)O)c(C(=O)O)c2)cc1C(=O)O,,,29.8 µM
OC1/C(=C/c2ccc(Cl)c(Cl)c2)COC/C1=C\c1ccc(Cl)c(Cl)c1,,,>100 µM
O=c1oc2ccccc2c(O)c1C(c1ccc(Cl)cc1)c1c(O)c2ccccc2oc1=O,,,27.4 µM
O=C1Sc2ccc(Cl)cc2C(=O)N2CS(=O)CC12,,,237 µM
O=C(OCC1OCOC(COC(=O)c2ccccc2)C(O)C1O)c1ccccc1,Mn2+,,>200 µM
Cc1cn(C2CC(OP(=O)(O)OCC3OC(n4cnc5c(N)ncnc54)CC3O)C(COP(=O)(O)OC3CC(n4ccc(N)nc4=O)OC3CO)O2)c(=O)[nH]c1=O,,,65 µM
CCCCS(=O)(=O)c1ccc(Oc2cc(O)c3c(c2N)C(=O)c2ccccc2C3=O)cc1,Mg2+,,>200 µM
N#CC(C#N)=NNc1ccc(S(=O)(=O)c2ccc(NN=C(C#N)C#N)cc2)cc1,,,25.9 µM
COc1c(-c2ccc(O)c(O)c2)oc2c(O)c(O)cc(O)c2c1=O,,,0.7 µM
Cc1cc(=O)[nH]c2c(OCOc3cccc4c(C)cc(=O)[nH]c34)cccc12,Mn2+,,>200 µM
O=C(Nc1ccccc1)C(=S)Nn1c(O)c(/C=C2\C=Nc3ccccc32)sc1=S,,,>100 µM
[N-]=[N+]=NC(=O)c1ccc(S(=O)(=O)c2ccc(F)cc2)cc1,,,90 µM
Nc1ccn(C2CC(OP(=O)(O)OCC3OC(n4cnc5c(N)ncnc54)CC3OP(=O)(O)OCC3OC(n4cnc5c(=O)[nH]c(N)nc54)CC3O)C(COP(=O)(O)O)O2)c(=O)n1,,,57 µM
CN(C)[C@@H]1C(=O)C(C(=O)NCNc2nc3n[nH]nc3c(=O)[nH]2)=C(O)[C@@]2(O)C(=O)C3=C(O)c4c(O)cccc4[C@@](C)(O)[C@H]3C[C@@H]12,,RF,1.6 µM
COc1cc(C(=O)Oc2c(-c3ccc(Cl)c(Cl)c3)oc3ccccc3c2=O)cc(OC)c1OC(C)=O,,,>100 µM
O=C(O)C(=O)CC(=O)c1c[nH]c2ccccc12,,,6.5 µM
COc1cc(/C=C/C(=O)Oc2c(-c3ccc(Cl)cc3)oc3ccccc3c2=O)ccc1OC(C)=O,,,>100 µM
COc1ccc(Cn2nnnc2C(=O)CC(=O)c2c[nH]c3ccccc23)cc1,,,60 µM
Cc1cc([N+](=O)[O-])c(S(=O)(=O)c2ccccc2)c([N+](=O)[O-])c1,,,>100 µM
O=C1c2ccccc2SCC2CSC(c3ccccc3)N12,,,241 µM
Nc1ccn(C2CC(OP(=O)(O)OCC3OC(n4cnc5c(=O)[nH]c(N)nc54)CC3O)C(COP(=O)(O)O)O2)c(=O)n1,,,71 µM
N#Cc1cc2c(cc1C#N)/C(=N/c1cccc(N)n1)N=C2Nc1cccc(N)n1,,,148 µM
CN1C/C(=C\c2ccc(O)c([N+](=O)[O-])c2)C(=O)/C(=C/c2ccc(O)c([N+](=O)[O-])c2)C1,,,>100 µM
Cc1cn(C2CC(O)C(COP(=O)(O)OC3CC(n4cc(C)c(=O)[nH]c4=O)OC3COP(=O)(O)OC3CC(n4ccc(N)nc4=O)OC3COP(=O)(O)O)O2)c(=O)[nH]c1=O,,,>100 µM
O=C1Sc2ccccc2C(=O)N2CS(=O)CC12,,,192 µM
CCC(C)C[C@H]1OC(=O)[C@H](C(C)C)N(C)C(=O)[C@@H](CC(C)C)OC(=O)[C@H](C(C)C)N(C)C(=O)[C@@H](C(C)C)OC(=O)[C@H](C(C)C)N(C)C1=O,,,11.8 µM
O=C1/C(=C/c2ccc(Cl)c(Cl)c2)COC/C1=C\c1ccc(Cl)c(Cl)c1,,,9 µM
COc1cc(/C=C/C(=O)Oc2c(-c3ccc(Cl)cc3)oc3ccccc3c2=O)ccc1O,,,>100 µM
Cc1ccnc(NS(=O)(=O)c2ccc(N=Nc3cc4ccccc4c(C(=O)O)c3O)cc2)n1,Mg2+,,59 µM
CN(C)C1C(=O)C(C(=O)NCNC(CO)(CO)CO)=C(O)C2(O)C(=O)C3=C(O)c4c(O)cccc4C(C)(O)C3CC12,,RF,1.3 µM
Nc1cc(S(=O)(=O)c2ccc(O)c(N)c2)ccc1O,,,4.5 µM
COc1cc2c(cc1OC)C(=O)N1CSCC1C(=O)S2,,,650 µM
CC(=O)Oc1c(-c2ccc(Cl)c(Cl)c2)oc2ccccc2c1=O,,,>100 µM
CN1C/C(=C\c2cc(O)c(O)c(O)c2)C(=O)/C(=C/c2cc(O)c(O)c(O)c2)C1,,,0.4 µM
COc1ccc(NC(=O)C/C(C)=N/N=C(N)N)c([N+](=O)[O-])c1,Mn2+,,>200 µM
CC(O)C(=O)C[C@@H]1O[C@H](COC(=O)c2ccc(O)c(OC(=O)c3ccc(O)c(OC(=O)C4=CC(=O)C(=O)C=C4)c3)c2)[C@@H](OC(=O)c2ccc(O)c(OC(=O)c3ccc(O)c(OC(=O)C4=CC(=O)C(=O)C(O)=C4)c3)c2)[C@H](OC(=O)c2ccc(O)c(OC(=O)C3=CC(=O)C(=O)C(OC(=O)c4ccc(O)c(OC(=O)C5=CC(=O)C(=O)C(O)=C5)c4)=C3)c2)[C@H]1OC(=O)c1ccc(O)c(OC(=O)c2ccc(O)c(OC(=O)C3=CC(=O)C(=O)C(O)=C3)c2)c1,,,6 µM
COc1cc2c(c(OC)c1OC)C(=O)C1C2N1C(N)=O,,,>250 µM
CN(C)C1C(=O)C(C(=O)NCNC2C(=O)N3C2SC(C)(C)C3C(=O)O)=C(O)C2(O)C(=O)C3=C(O)c4c(O)cccc4C(C)(O)C3CC12,,RF,2.2 µM

7 of the rows above, restated:

smiles	setting	strain or isolate	value
Nc1ccn(C2CC(OP(=O)(O)OCC3OC(n4cnc5c(N)ncnc54)CC3OP(=O)(O)OCC3OC(n4cnc5c(=O)[nH]c(N)nc54)CC3O)C(COP(=O)(O)O)O2)c(=O)n1			57 µM
O=c1oc2ccccc2c(O)c1C(c1ccccc1)c1c(O)c2ccccc2oc1=O			43 µM
Nc1ccn([C@@H]2O[C@H](COP(=O)(O)O[C@H]3[C@H](n4cnc5c(N)ncnc54)CO[C@@H]3COP(=O)(O)O)[C@@H](O)[C@H]2O)c(=O)n1			>1000 µM
Cc1cn(C2CC(O)C(COP(=O)(O)OC3CC(n4cc(C)c(=O)[nH]c4=O)OC3COP(=O)(O)OC3CC(n4ccc(N)nc4=O)OC3COP(=O)(O)O)O2)c(=O)[nH]c1=O			>100 µM
O=c1oc2ccccc2c(O)c1C(c1ccc(Cl)cc1)c1c(O)c2ccccc2oc1=O			27.4 µM
O=C(CCCN(C1CCCCC1)C1CCCCC1)Nc1ccc(S(=O)(=O)c2ccc(NC(=O)CCCN(C3CCCCC3)C3CCCCC3)cc2)cc1			>100 µM
O=C1Sc2ccc(Cl)cc2C(=O)N2CS(=O)CC12			237 µM